Article PMC9005727, “ComFC mediates transport and handling of single-stranded DNA during natural transformation” (Nature Communications, 2022)
The exact form of at least one protein or probe is not confirmed. A negative result means that nothing was seen under these conditions.

Target: ComFC WT (His6-ComFC) (Helicobacter pylori 26695) (UniProt O26008)
Test: EMSA
Details: EMSA: 10 mM Tris-HCl pH 7.5, 50 mM KCl, 1 mM DTT, 0.1 ug/ul BSA, 4 °C, 30 min; native 6% TBE-PAGE; recombinant protein; residues 1-191; label: 5'-Cy5 on XV2

“TGGGTGAACCTGCAGGTGGGCAAAGATGTCCTAGCAATGTAATCGTCAAGCTTTATGCCGTT (double strand) [XV2/cXV2 62-bp dsDNA]”: no binding.
